Values quoted from earlier work, collected in article PMC10974348.

Target: capsid protein (Human immunodeficiency virus 1) (UniProt O93182)

## cyclophilin A (from UniProt P62937)
  Kd: 16 µM
